Assay results from patent US6660255B1, “Inhibition of gene transcription by polyamide DNA-binding ligands” (California Institute of Technology, priority 1997, dated 2003).
Construct, isoform or probe ends are uncertain for at least one entry.

The chains behind the UniProt entries cited, without tags or fusion partners.
UniProt P20226, whole entry: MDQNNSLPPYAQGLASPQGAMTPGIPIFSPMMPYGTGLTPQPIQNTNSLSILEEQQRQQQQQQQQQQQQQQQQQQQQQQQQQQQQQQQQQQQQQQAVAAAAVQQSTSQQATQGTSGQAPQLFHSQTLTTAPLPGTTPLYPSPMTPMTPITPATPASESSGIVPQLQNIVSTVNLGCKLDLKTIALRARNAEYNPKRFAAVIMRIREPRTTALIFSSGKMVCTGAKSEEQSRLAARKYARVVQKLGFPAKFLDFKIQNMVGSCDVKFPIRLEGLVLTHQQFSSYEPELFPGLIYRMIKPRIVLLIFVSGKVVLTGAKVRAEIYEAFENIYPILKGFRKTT

Target: TBP (rhTBP) (Homo sapiens) (UniProt P20226)
Experiment: binding assay
Conditions: TBP binding inhibited by polyamide CMV-1; method not stated; purified recombinant protein; protein details: Promega

## AGGTCTATAA (double strand) [CMV MIEP TATA region]
  binding result: binds
